{
  "source": "patent US20260166162A1",
  "about": "“CARBON CHAIN SUBSTANCE FOR REGULATING TRANSMEMBRANE TRANSPORT AND FLUIDITY OF CELL MEMBRANES, AND PREPARATION AND USE THEREOF” (priority 2022, published 2026)",
  "key": {"[1]": {"system": "H5N1 pseudovirus"}, "[2]": {"system": "SARS-CoV-2 pseudovirus, Staphylococcus aureus, Escherichia coli and hepatic stellate cells", "format": "cell-based"}, "[3]": {"system": "HIV pseudovirus", "details": "0.035 mM, 1 h"}, "[4]": {"system": "SARS-CoV-2 pseudovirus", "details": "0.035 mM, 1 h"}, "[5]": {"system": "H7N9 pseudovirus", "details": "0.035 mM, 1 h"}},
  "data": [
    {"substance": "octacosanoic acid-serum albumin complex: serum albumin grafted with octacosanoic acid (method of Example 1)", "values": [
      {"measurement": "neutralization inhibition rate", "setting": "[1]", "value": 53, "unit": "%"},
      {"measurement": "IC50", "setting": "[1]; read-out: median inhibition concentration (presumed)", "value": "~9", "unit": "µM"}
    ]},
    {"substance": "DHA-HSA: serum albumin grafted with docosahexaenoic acid (Example 1)", "values": [
      {"measurement": "absorption of DiI-labelled complex by receptors of different size (fluorescence intensity)", "setting": "[2]", "value": "smaller individuals can more rapidly absorb"}
    ]},
    {"substance": "ALA-HSA: serum albumin grafted with linolenic acid by amide bonds (Example 1)", "values": [
      {"measurement": "Sterilization rate (%)", "setting": "[3]", "value": ">99.9", "unit": "%"},
      {"measurement": "Sterilization rate (%)", "setting": "[4]", "value": ">99.9", "unit": "%"},
      {"measurement": "Sterilization rate (%)", "setting": "[1]; 0.035 mM, 1 h", "value": ">99.9", "unit": "%"},
      {"measurement": "Sterilization rate (%)", "setting": "[5]", "value": ">99.9", "unit": "%"}
    ]}
  ]
}
